Assay results as given in patent US20240059738A1, “SWITCHING PEPTIDE AND MULTIPLEX IMMUNOASSAY METHOD USING SAME” (OPTOLANE TECHNOLOGIES INC., priority 2021, published 2024).

Tested on: hepatitis B surface antigen (HBsAg)

Sequence: TYLEWYPQKPGQSPKLLIYK [L1, TYLEW YPQKP GQSPK LLIYK]
- LOD (fluorescence at the bottom of the microplate): 587 ng/mL
- dynamic range, lower limit (fluorescence in the solution): 136 ng/mL
- dynamic range, upper limit (fluorescence in the solution): 33 µg/mL
- LOD (fluorescence in the solution, HBsAg 0.3 to 10^5 ng/ml): 56 ng/mL

Like-named read-outs stand apart in the source and are kept apart here.
